The source of these data is publication PMC11653257, “Organometallic Half-Sandwich Complexes of 8-Hydroxyquinoline-Derived Mannich Bases with Enhanced Solubility: Targeting Multidrug Resistant Cancer” (Inorganic Chemistry, 2024).

Holding throughout (settings): pH 7.4 (PBS’), waiting time 24 h
A short description of series [1]: Adduct formation with HSA binding model MIM (UV–vis).
The nature of series [2]: Adduct formation with HSA binding model FHA (UV–vis).
Series [3] can be described thus: Adduct formation with HSA binding model AHA (UV–vis).

Consider `Cc1c(C)c(C)[c-](C)c1C.[Cl-].[Cl-].[O-]c1c(C[NH+]2CCCC2)cc(Cl)c2cccnc12.[Rh+3]` [(1), [RhCp*(HQCl-Pyr)Cl]Cl], for which the “logK’(MIM)” value in series [1] amounted to 4.50 ± 0.07. Further, the “logK’(FHA)” value in series [2] is reported as 4.52 ± 0.02. In addition, the “logK’(AHA)” value in series [3] was 4.30 ± 0.01.
For [RuCym(HQCl-Pip)Cl]Cl [(4)] the same measures were 5.86 ± 0.07, 5.38 ± 0.04 and 5.37 ± 0.02.
For [RuCym(HQCl-Pyr)Cl]Cl [(2)] the same measures were 5.85 ± 0.03, 5.31 ± 0.01 and 5.39 ± 0.02.
As to [RhCp*(HQCl-Pip)Cl]Cl [(3)], the “logK’(MIM)” value in series [1] turned out to be 4.48 ± 0.12. Further, in series [2], the “logK’(FHA)” value is 4.52 ± 0.01. Moreover, the “logK’(AHA)” value in series [3] is 4.13 ± 0.01.
